Laboratory results: US20240181022A1, “AMURINS LYSINS, AND LYSIN-ANTIMICROBIAL PEPTIDE (AMP) CONSTRUCTS ACTIVE AGAINST GRAM-NEGATIVE BACTERIA” (priority 2021, published 2024)

Tested on: P. aeruginosa strain ATCC 27853
Type: cell-based, Pseudomonas aeruginosa

B1: GN370: lysin-AMP construct, SEQ ID NO: 149: MIDR, FIRL and NPTH moieties N-terminal to GN202 lysin (protein)
chain: MIDRFIRLNPTHGPRRPRRPGRRAPVRTSQRGIDLIKSFEGLRLSAYQDSVGVWTIGYGTTRGVTRYMTITVEQAERMLSNDIQRFEPELDRLAKVPLNQNQWDALMSFVYNLGAANLASSTLLDLLNKGDYQGAADQFPHWVNAGGKRLDGLVKRRAAERALFLEPLS
modifications: GN370 lysin
DCAAT media
  MIC change over 28-day serial passage: did not result in any increase in MIC
In the absence of GN370 (GN370: alone)
  MIC increase after 28 days, agent alone: No MIC increases
